Results of unrelated studies side by side (data: NIAID ChemDB).

All rows: toxicity to cultured cells; cells: KB; endpoint: CC50

CCn: concentration that lowers growth or viability of the cells by n%.

compound,read by,result
Nc1ccn([C@H]2CC[C@@H](CO)O2)c(=O)n1,,100 µM
CN1CCc2cc3c(cc2C(=O)Cc2ccc4c(c2C1)OCO4)OCO3,sulforhodamine,>3.5 µg/mL
O=C(/C=C/c1ccc(O)c(O)c1)Oc1c(-c2ccc(Cl)cc2)oc2ccccc2c1=O,,3.7 µM
C[C@H]1c2ccoc2C[C@H]2[C@H]1[C@@H](O)[C@@H](OC(=O)/C=C/c1ccccc1)[C@@]1(O)C(C)(C)CCC[C@]21C,,3.2 µg/mL
OCC(CO)OCn1c(Br)nc(Br)c1Br,,>100 µM
OC[C@H]1O[C@@H](n2c(NC3CC3)nc3cc4cc(Cl)c(Cl)cc4nc32)[C@H](O)[C@@H]1O,,100 µM
OC[C@H]1O[C@@H](n2c(Cl)nc(Cl)c2Cl)[C@H](O)[C@H]1O,,>100 µM
OC[C@H]1O[C@@H](n2cnc3cc4cc(Cl)c(Cl)cc4cc32)[C@H](O)[C@@H]1O,,>100 µM
OC[C@H]1O[C@@H](n2c(Br)nc(Cl)c2Cl)[C@@H](O)[C@@H]1O,,>100 µM
OCC1OC(n2c(NC3CC3)nc3nc4cc(Cl)c(Cl)cc4nc32)C(O)C1O,,90 µM
CC(C)CNC(=O)[C@@H](N)Cc1ccc(O[P@@]2(=O)CO[C@@H](Cn3cnc4c(N)ncnc43)CO2)cc1,absorbance,>100 µM
C=C(C)[C@@H]1CC[C@]2(CO)CC[C@]3(C)[C@H](CC[C@@H]4[C@@]5(C)CC[C@H](OC(C)=O)C(C)(C)[C@@H]5CC[C@]43C)[C@@H]12,,>20 µg/mL
O=C(/C=C/c1ccc(O)c(O)c1)Oc1c(-c2ccc(Cl)c(Cl)c2)oc2ccccc2c1=O,,6 µM
OCC1OC(n2cnc3nc4cc(Cl)c(Cl)cc4nc32)C(O)C1O,,>100 µM
CC(C)C12C=C3CC[C@H]4[C@](C)(C(=O)O)CCC[C@]4(C)[C@]3(CC1)OO2,absorbance,33.17 µg/mL
OC[C@H]1O[C@@H](n2c(Cl)nc3cc(Cl)c(Cl)cc32)[C@H](O)[C@@H]1O,,210 µM
C[C@H]1c2ccoc2C[C@H]2[C@H]1[C@@H](O)[C@@H](OC(=O)c1ccccc1)[C@@]1(O)C(C)(C)CCC[C@]21C,,9.9 µg/mL
O=C(Oc1c(-c2ccc(Cl)c(Cl)c2)oc2ccccc2c1=O)c1cc(OCc2ccccc2)c(OCc2ccccc2)c(OCc2ccccc2)c1,,>100 µM
O=c1[nH]cnc2c1ncn2[C@H]1CC[C@@H](CO)O1,,>500 µM
CC(=O)OC(C1C=C(C)C(=O)O1)C(C)C1C2C3(O)OC4(CCC12C)C(=CCC1C(C)(C)OC2CC(=O)OC21C4O)C3=O,MTT,1.87 µg/mL
C[C@@H]1O[C@@H](O[C@@H]2[C@@H](O)[C@H](OCCc3ccc(O)c(O)c3)O[C@H](CO)[C@H]2OC(=O)/C=C/c2ccc(O)c(O)c2)[C@H](O)[C@H](O)[C@H]1O,MTT,9.41 µM
O=c1[nH]c(=O)n([C@H]2C[C@H](O)[C@@H](CO)O2)c[c]1[Hg+].O[C@H](C[S-])[C@H](O)CS,trypan blue,48.8 µg/mL
O=c1c(O)c(-c2ccc(O)c(O)c2)oc2cc(O)cc(O)c12,,25 µM
O=c1[nH]c(=O)n([C@H]2C[C@H](O)[C@@H](CO)O2)c[c]1[Hg+],trypan blue,4.2 µg/mL
OCCc1ccc(O)c(O[C@@H]2O[C@H](CO)[C@@H](O)[C@H](O)[C@H]2O)c1,MTT,5.66 µM
COC(=O)/C(=C1\OC(=O)C(c2ccccc2)=C1O)c1ccccc1,,>20 µg/mL
OCC(CO)OCn1c(Cl)nc(Cl)c1Cl,,25 µM
Nc1nc2c(ncn2[C@H]2C=C[C@@H](CO)O2)c(=O)[nH]1,,>500 µM
C[C@@H]1O[C@@H](O[C@@H]2[C@@H](O)[C@H](OCCc3ccc(O)c(O)c3)O[C@H](COC(=O)/C=C/c3ccc(O)c(O)c3)[C@H]2O)[C@H](O)[C@H](O)[C@H]1O,MTT,5.03 µM
Nc1ccn([C@@H]2C[C@@H](O)[C@H](CO)O2)c(=O)n1,,>100 µM
C[C@@H]1CCC23[C@H]1CC[C@@]2(C)C[C@@](C)(O)[C@H]3C,,10.4 µg/mL
Nc1ncnc2c1ncn2[C@@H]1C[C@@H](O)[C@H](CO)O1,,>100 µM
COc1cccc2c1C(=O)c1c(O)c3c(c(O)c1C2=O)C[C@@](O)(C(=O)CO)C[C@@H]3O[C@H]1C[C@H](N)[C@H](O)[C@H](C)O1,sulforhodamine,0.56 µg/mL
O=c1[nH]c(=O)n([C@H]2C[C@H](O)[C@@H](CO)O2)c[c]1[Hg+].OCC[S-],trypan blue,18.9 µg/mL
OCCc1ccc(O)c(O)c1,MTT,15.05 µM
Oc1c(Cl)cc(Cl)cc1-c1c(Cl)cc(Cl)c(Oc2ccc(Cl)cc2Cl)c1O,,2.3 µg/mL
OCC(CO)OCn1c(Br)nc(Cl)c1Cl,,>100 µM
O=C(Oc1c(-c2ccc(Cl)cc2)oc2ccccc2c1=O)c1cc(O)c(O)c(O)c1,,6.7 µM
OCC1OC(n2c(NC3CC3)nc3nc4cc(Cl)c(Cl)cc4nc32)C(O)C1O,,90 µM
OC[C@H]1O[C@@H](n2c(Br)nc3cc(Cl)c(Cl)cc32)[C@H](O)[C@@H]1O,,>100 µM
C=C1C[C@H]2OC2[C@]2(CC[C@@H]3C([C@@H](OC(C)=O)[C@H](C=C(C)C)OC(C)=O)=CC[C@H](OC(C)=O)[C@@H]13)CO2,,>20 µg/mL
CN1Cc2c(ccc3c2OCO3)-c2ccc3cc4c(cc3c21)OCO4,sulforhodamine,>3.33 µg/mL
COc1cc(/C=C/C(=O)Oc2c(-c3ccc(Cl)c(Cl)c3)oc3ccccc3c2=O)ccc1OC(C)=O,,>100 µM
C[C@](Cl)([C@@H](Br)/C=C/[C@](C)(Cl)CBr)[C@@H](Br)CCl,,12.4 µg/mL

Neighbouring rows are from separate reports. An empty or dashed field is not shown.